From patent US20140294826A1 (TUFTS UNIVERSITY, published 2014)

Key:
[1] = target: T1, Shiga toxin 1 (Stx1) (Escherichia coli O157:H7, UniProt P08026 23-315); test: cell-based or functional assay
[2] = target: T1, Shiga toxin 1 (Stx1); test: dilution ELISA and SPR
[3] = target: T1, Shiga toxin 1 (Stx1); test: SPR, Stx1 immobilised
[4] = target: T1, Shiga toxin 1 (Stx1); test: cell-based or functional assay; remark: listed apart in the source
[5] = target: T1, Shiga toxin 1 (Stx1); test: dilution ELISA, HRP-anti-E-tag
[6] = target: T1, Shiga toxin 1 (Stx1); test: dilution ELISA on Stx1 (captured with mAb 4D3 or coated on the plate); […]
[7] = target: T1, Shiga toxin 1 (Stx1); test: as above; remark: listed apart in the source

Binder | fold neutralization potency over the pool of monomer VHHs [1] | fold improvement of EC50 and KD over the monomer VHHs [2] | Kd [3] | IC50, Vero cell neutralization assay [4] | EC50 [5] | EC50 (read off the curve) [6] | EC50 (read off the curve) [7]
A5/A4 heterodimer VNA (designed binder) QVQLVESGGGLVQPGGSLRLSCAALEFTLEDYAIAWFRQAPGKEREGVSCISKSGVTKYTDSVKGRFTVARDNAKSTVILQMNNLRPEDTAVYNCAAVRPVFVDSVCTLATRYTYWGEGTQVTVSSAHHSEDPGGGGSGGGGSGGGGSQVQLVESGGGLVQPGGSLRLSCAASGFTLGSYHIGWFRHPPGKEREGTSCLSSRGDYTKYAEAVKGRFTISRDNTKSTVYLQMNNLKPEDTGIYVCAAIRPVLSDSHCTLAARYNYWGQGTQVTVSSAHHSEDP | 100 fold | ~10 fold | 0.74 nM | 0.3 nM | 0.4 nM | ~0.4 nM | 
A9/A4 heterodimer VNA (designed binder) QVQLVETGGGLAQAGDSLRLSCVEPGRTLDMYAMGWIRQAPGEEREFVASISGVGGSPRYADSVKGRFTISKDNTKSTIWLQMNSLKPEDTAVYYCAAGGDIYYGGSPQWRGQGTRVTVSSEPKTPKPQGGGGSGGGGSGGGGSQVQLVESGGGLVQPGGSLRLSCAASGFTLGSYHIGWFRHPPGKEREGTSCLSSRGDYTKYAEAVKGRFTISRDNTKSTVYLQMNNLKPEDTGIYVCAAIRPVLSDSHCTLAARYNYWGQGTQVTVSSAHHSEDP |  |  | 0.5 nM | 0.05 nM | 0.5 nM |  | ~0.5 nM
A9/A5/D10 heterotrimer VNA (designed binder) QVQLVETGGGLAQAGDSLRLSCVEPGRTLDMYAMGWIRQAPGEEREFVASISGVGGSPRYADSVKGRFTISKDNTKSTIWLQMNSLKPEDTAVYYCAAGGDIYYGGSPQWRGQGTRVTVSSEPKTPKPQGGGGSGGGGSGGGGSQVQLVESGGGLVQPGGSLRLSCAALEFTLEDYAIAWFRQAPGKEREGVSCISKSGVTKYTDSVKGRFTVARDNAKSTVILQMNNLRPEDTAVYNCAAVRPVFVDSVCTLATRYTYWGEGTQVTVSSAHHSEDPGGGGSGGGGSGGGGSQVQLVETGGLVQAGGSLRLSCAASGVPFSDYTMAWFRQAPGKEREVVARITWRGGGPYYGNSGNGRFAISRDIAKSMVYLHMDSLKPEDTAVYYCAASRLRPALASMASDYDYWGQGTQVSVSSEPKTPKPQ |  |  |  | 0.08 nM | 0.3 nM |  | 

Read-outs that look alike come from different tables or passages of the source.
